According to patent publication US20110306541A1, “METHODS FOR TREATING HCV” (priority 2010, published 2011):
Values joined by “and” are separate entries in the source; they are usually repeats but may differ in a detail not shown here. Equal entries are not always repeated.

Tested on: HCV genotype 1b replicon cells (Huh-luc)
Assay: Antiviral combination studies with Compound 3, MacSynergy II
Settings: in combination with Compound 3; mean ± SD

Substance: IFN-α
- Antagonism Volume (nM^2): 0.15 ± 0.2 nM^2
- Synergy Volume (nM^2): 32 nM^2 and 36.5 nM^2 and 32 ± 4.2 nM^2
